Results of unrelated studies side by side (data: NIAID ChemDB).

All rows: host cell toxicity; cells: HeLa; read-out: CC50

a–b is a range or a potency band.

smiles | read by | value
CCN(CC)c1cc(-c2ccc(O)cc2O)on1 | - | 121 µM
C[C@@H](CN[C@H](CN[C@H](CN[C@H](CNCCC(N)=O)Cc1ccc(O)cc1)Cc1ccc(O)cc1)Cc1ccc(O)cc1)NC[C@H](Cc1ccc(O)cc1)NC[C@@H](N)Cc1ccc(O)cc1 | MTS | >100 µM
CCCCCCCCCCCCCCCCO[C@H]1N([C@H]2C[C@H](N=[N+]=[N-])[C@@H](CO)O2)C(=O)NC(=O)[C@]1(C)Br | MTT | >500 µg/mL
CSCCCN1C(=O)Cc2ccccc2C1=O | - | >400 µM
c1ccc2c(c1)CSSC2 | MTT | 271 µM
N#Cc1cc(C#N)c2[nH]c3ccccc3n2c1=O | - | 38 µg/mL
COS(=O)(=O)O.N=C(N)c1ccc2cc(OC(=O)c3ccc(N=C(N)N)cc3)ccc2c1 | MTT | 36 µg/mL
O=C(Oc1c(-c2ccc(Cl)cc2)oc2ccccc2c1=O)c1cc(OCc2ccccc2)c(OCc2ccccc2)c(OCc2ccccc2)c1 | - | 1.36 µM
CCOC(=O)/C=C/c1cc(-c2ccccc2)cnc1Cl | MTT | 28 µM
c1ccc(Oc2ccc3c(c2)CSSC3)cc1 | MTT | 36 µM
CC(CC(C)C(O)C(C)C(=O)O)C(O)CC(=O)c1ccc(N)cc1 | - | >100 µg/mL
CCOC(=O)/C(=C\c1cc(-c2ccccc2)cnc1Cl)C(=O)c1ccccc1 | MTT | 61 µM
COc1ccc(-c2cc(N(C)C)no2)c(O)c1 | - | >427 µM
CC[n+]1c(-c2ccccc2)c2cc(N)ccc2c2ccc(N)cc21 | - | <10 µM
CNC(=O)c1c(N)c2cccnc2n(O)c1=O | - | <100 µM
NNC(=O)c1ccncc1 | MTT | 8.5 µg/mL
O=c1c(-c2ccccc2F)c(O)c2cccnc2n1O | - | <100 µM
CC[n+]1c(-c2ccccc2)c2cc(NC(N)=O)ccc2c2ccc(NC(N)=O)cc21 | - | >10 µM
Cc1cc(CCCCCCCOc2ccc(C3=NCCO3)cc2)on1 | - | 4–8 µg/mL
CCOC(=O)[C@@]1(C)CC[C@]2(C)CC[C@]3(C)C(=CC(=O)[C@@H]4[C@@]5(C)CC/C(=N\OCc6ccccc6F)C(C)(C)[C@@H]5CC[C@]43C)[C@@H]2C1 | MTT | 34.96 µM
COc1ccc2[nH]c3c(c2c1)CCN1OCSCC(N)[C@@H]31 | - | 0.4 µg/mL
CCOC(=O)c1ccc(OCCCCCc2ccc(Cl)s2)cc1 | - | >284 µM
C=CCSc1n[nH]c(-c2ccc([N+](=O)[O-])c(C(F)(F)F)c2)n1 | MTT | 23.22 µg/mL
CC(C)S(=O)(=O)n1c(N)nc2ccc(/C(=N/O)c3ccccc3)cc21 | - | 3.6 µg/mL
NC(=O)CCNC[C@H](Cc1ccc(O)cc1)NC[C@H](Cc1ccc(O)cc1)NC[C@H](Cc1ccc(O)cc1)NC[C@@H](N)Cc1ccc(O)cc1 | MTS | >100 µM
CCOC(=O)[C@@]1(C)CC[C@]2(C)CC[C@]3(C)C(=CC(=O)[C@@H]4[C@@]5(C)CC/C(=N\OCc6ccc(-c7ccccc7)cc6)C(C)(C)[C@@H]5CC[C@]43C)[C@@H]2C1 | MTT | 38.29 µM
CCOC(=O)CCCN1C(=O)Cc2ccccc2C1=O | - | >360 µM
O=C1c2ccccc2C(=O)c2c1ccc1[nH]c([C@H]3NC[C@@H](O)[C@H]3O)nc21 | MTT | 20.34 µM
c1cc(C2=NCCO2)ccc1OCCCCCN1CCCC1 | - | 165 µM
C=CCc1ncn2c(=O)[nH]c(NC(C)=O)nc12 | - | >400 µg/mL
COC(=O)c1ccc2c(c1)CSSC2 | MTT | 143.6 µM
CN(Cc1cccc(Cn2cncn2)c1)c1cc(=O)n(O)c2ncccc12 | - | <100 µM
CCN(CC)c1cc(-c2ccc(OC)cc2OC)on1 | - | >362 µM
CCOC(=O)c1ccc(OCCCCC(=O)c2ccc(Cl)s2)cc1 | - | >273 µM
Nc1nccc2c1ncn2[C@@H]1C[C@H](CO)[C@@H](O)[C@H]1O | - | >400 µg/mL
CCOC(=O)[C@@]1(C)CC[C@]2(C)CC[C@]3(C)C(=CC(=O)[C@@H]4[C@@]5(C)CC/C(=N\OCc6ccccc6C#N)C(C)(C)[C@@H]5CC[C@]43C)[C@@H]2C1 | MTT | 23.34 µM
C=CCc1nc(C)n2c(=O)[nH]c(NC(C)=O)nc12 | - | >400 µg/mL
CC(/C=C/C(=O)O)[C@H]1O[C@@H](CC(=O)c2ccc(N)cc2)[C@H](C)C[C@H]1C | - | >100 µg/mL
Br.CN1C=CN(c2cccc(N3C=CN(C)C3)n2)C1 | sulforhodamine / absorbance | >30 µM
CCOc1cc(O)c(C(=O)NCc2ccc(OC)cc2)c(OC)c1 | - | 30 µg/mL
C=CCc1nc(C)n2c(=O)[nH]cnc12 | - | >400 µg/mL
CCOC(=O)c1ccc(OCCCCC(=O)c2cc(C)[nH]c2C)cc1 | - | 204 µM
CCOC(=O)[C@@]1(C)CC[C@]2(C)CC[C@]3(C)C(=CC(=O)[C@@H]4[C@@]5(C)CC/C(=N\OCc6ccc(Cl)c(Cl)c6)C(C)(C)[C@@H]5CC[C@]43C)[C@@H]2C1 | MTT | 43.65 µM
CC(C)CS[C@@H]1C=C[C@H](n2cnc3c(N)ncnc32)C1 | - | 16–80 µg/mL
CCOC(=O)Cc1c(O)c2cccnc2n(O)c1=O | - | <100 µM
CCOC(=O)c1cc(C#N)c2[nH]c3ccccc3n2c1=O | - | 175 µg/mL
CC(=O)c1ccc2c(c1)CSSC2 | MTT | 163.9 µM
CCCc1cnc(Cl)c(/C=C/C(=O)OCC)c1 | MTT | 31 µM
Oc1ccc(-c2nc(SCC3CC3)n[nH]2)cc1 | MTT | 31.17 µg/mL
CCOC(=O)[C@@]1(C)CC[C@]2(C)CC[C@]3(C)C(=CC(=O)[C@@H]4[C@@]5(C)CC/C(=N\OCc6ccc(F)cc6)C(C)(C)[C@@H]5CC[C@]43C)[C@@H]2C1 | MTT | 29.49 µM
CCOC(=O)CCCN1C(=O)c2ccccc2C(C(=O)c2ccccc2)C1=O | - | >265 µM
CN(C)C(=O)COC(=O)Cc1ccc(OC(=O)c2ccc(N=C(N)N)cc2)cc1.COS(=O)(=O)O | MTT | >500 µg/mL
O=C1c2ccccc2C(=O)c2c1ccc1[nH]c(CNCCN3[C@@H](CO)[C@@H](O)[C@H](O)[C@@H]3CO)nc21 | MTT | 44.23 µM
COc1cc(C(=O)Oc2c(-c3ccc(Cl)cc3)oc3ccccc3c2=O)ccc1OC(C)=O | - | 14.22 µM
CCOC(=O)[C@@]1(C)CC[C@]2(C)CC[C@]3(C)C(=CC(=O)[C@@H]4[C@@]5(C)CC/C(=N\OCc6cccc(C#N)c6)C(C)(C)[C@@H]5CC[C@]43C)[C@@H]2C1 | MTT | >1000 µM
COc1cc(C(=O)Oc2c(-c3ccc(Cl)c(Cl)c3)oc3ccccc3c2=O)ccc1O | - | 3.76 µM
NC1CCCON2CCc3c([nH]c4ccccc34)[C@H]12 | - | 340 µg/mL
O=c1c(-c2ccccc2)c(O)c2cc(F)cnc2n1O | - | 0.14 µM
CC(=O)/C=C/c1cc(-c2ccccc2)cnc1Cl | MTT | 104 µM
COc1cc(C(=O)Oc2c(-c3ccc(Cl)c(Cl)c3)oc3ccccc3c2=O)cc(OC)c1OC(C)=O | - | 1.29 µM
CCOc1cc(OC)ccc1-c1cc(N(CC)CC)no1 | - | 90 µM
Fc1ccc(-c2nc(=S)[nH][nH]2)cc1 | MTT | 33.82 µg/mL
O=C1c2ccccc2C(=O)c2c1ccc1[nH]c(C[C@@H]3O[C@H](CO)[C@@H](O)[C@H]3O)nc21 | MTT | 8.23 µM
O=C(Oc1c(-c2ccc(Cl)c(Cl)c2)oc2ccccc2c1=O)c1cc(OCc2ccccc2)c(OCc2ccccc2)c(OCc2ccccc2)c1 | - | 1.56 µM
Cc1nc(Cc2ccccc2)c2[nH]c(=S)[nH]c(=O)n12 | - | 200 µg/mL
Fc1ccc2c(c1)CSSC2 | MTT | >536.8 µM
COc1ccnc2[nH]cc(C(=O)C(=O)N3CCN(C(=O)c4ccccc4)C[C@H]3C)c12 | - | 226 µM
O=C1c2ccccc2C(=O)c2c1ccc1[nH]c(CNCCCCCCN3[C@@H](CO)[C@@H](O)[C@H](O)[C@@H]3CO)nc21 | MTT | 191.8 µM

Repeating the final 8 entries:

smiles,read by,value
CCOc1cc(OC)ccc1-c1cc(N(CC)CC)no1,-,90 µM
Fc1ccc(-c2nc(=S)[nH][nH]2)cc1,MTT,33.82 µg/mL
O=C1c2ccccc2C(=O)c2c1ccc1[nH]c(C[C@@H]3O[C@H](CO)[C@@H](O)[C@H]3O)nc21,MTT,8.23 µM
O=C(Oc1c(-c2ccc(Cl)c(Cl)c2)oc2ccccc2c1=O)c1cc(OCc2ccccc2)c(OCc2ccccc2)c(OCc2ccccc2)c1,-,1.56 µM
Cc1nc(Cc2ccccc2)c2[nH]c(=S)[nH]c(=O)n12,-,200 µg/mL
Fc1ccc2c(c1)CSSC2,MTT,>536.8 µM
COc1ccnc2[nH]cc(C(=O)C(=O)N3CCN(C(=O)c4ccccc4)C[C@H]3C)c12,-,226 µM
O=C1c2ccccc2C(=O)c2c1ccc1[nH]c(CNCCCCCCN3[C@@H](CO)[C@@H](O)[C@H](O)[C@@H]3CO)nc21,MTT,191.8 µM

An empty or dashed field is not shown. CCn: concentration that lowers growth or viability of the cells by n%. Neighbouring rows are from separate reports.